In patent US6359176B1, “Cationic surfactants, process for producing the same and utilization thereof” (Matsumoto Yushi-Seiyaku Co., Ltd., priority 1999, dated 2002):

These molecules were tested on activated sludge (assay: Biodegradability: degradation by microorganisms with degradation tester and closed system oxygen consumption meter). Details: 14 days; 100 % = whole sample degraded into inorganic substances.
Experimental: The biodegradability of the derivatives was determined by checking the degree of degradation of those chemicals by microorganisms (procedures defined in Japanese domestic low for regulation of chemical substances and in OECD) with a degradation tester and closed system oxygen consumption meter. The test was continued for 14 days and the biodegradability data was calculated into percentage.
The 100-% degradability in the testing means that whole of a test sample has been degraded into inorganic substances such as carbon dioxide.

| Structure (SMILES) | Biodegradability (%) |
| --- | --- |
| CCCCCCCCCCCCCCCC(=O)OCC(O)C(O)C(O)C(O)C[N+](C)(C)C.[Cl-] (stereo not drawn) [Monopalmitate derivative] | 36.7 |
| CCCCCCCCCCCCCCCCCC(=O)OCC(O)C(O)C(O)C(O)C[N+](C)(C)C.[I-] (stereo not drawn) [Monostearate derivative] | 57.5 |
| CCCCCCCCCCCC(=O)OCC(COC(=O)CCCCCCCCCCC)OC(=O)CCCCCCCCCCC [Trilaurate] | 47.3 |
